The other results are listed elsewhere or left out. Results with a measured potency or affinity are listed apart. Active and inactive are the calls of the source. No rule for the calls is given here.
Assay: RSV antiviral activity via CPE protection, HEp-2 cells, primary 10 µM value included (AID 2391)
Details: RSV-induced CPE inhibition, at 10 µM, stronger effect = higher value

Row | SMILES | CPE inhibition
1 | O=C(NCC1(N2CCOCC2)CCCCC1)c1cc2ccccc2o1 | inactive: -0.65%
2 | Cc1cc(C)cc(N(C(=O)c2ccccc2)C2CCN(C(=O)OC(C)(C)C)CC2)c1 | inactive: 0.13%
3 | O=C(NCC1(N2CCCCC2)CCCCC1)c1ccc(Cl)nc1 | inactive: -1.79%
4 | CCOC(=O)N1CCC(Nc2ccc(OC)cc2)CC1 | inactive: -0.21%
5 | COc1ccc(Cl)cc1C(=O)NCC1(N2CCOCC2)CCCCC1 | inactive: 0.97%
6 | O=C(NCC1(N2CCCCC2)CCCCC1)c1ccc(Cl)s1 | inactive: -0.29%
7 | O=C(OC1CN2CCC1CC2)C1c2ccccc2Oc2ccccc21 (stereo unspecified) | inactive: -0.58%
8 | O=C(NCC1(N2CCCCC2)CCCCC1)c1cccs1 | inactive: -0.36%
9 | O=C(NCC1(N2CCCCC2)CCCCC1)c1ccc(=O)[nH]c1 | inactive: 0.76%
10 | COc1ccc(C(=O)NCC2(N3CCCCC3)CCCCC2)c(OC)c1OC | inactive: -0.48%
11 | CC(C)(C)OC(=O)N1CCC(N(C(=O)c2ccccc2)c2ccc(F)cc2)CC1 | inactive: 3.99%
12 | COc1ccc(C(=O)NCC2(N3CCCCC3)CCCCC2)cc1 | inactive: 0.47%
13 | CSc1ccccc1C(=O)NCC1(N2CCCCC2)CCCCC1 | inactive: 1.65%
14 | Cc1ccc(OCC(C)C)c(CN(CCCl)CCCl)c1 | inactive: 2.78%
15 | CCOC(=O)N1CCC(Nc2cccc(C)c2)CC1 | inactive: 1.7%
16 | COc1cc(C(=O)NCC2(N(C)C)CCCCC2)ccc1OC(F)F | inactive: 0.62%
17 | CCOc1ccc(C)cc1CN(CCCl)CCCl | inactive: 0.76%
18 | CCOC(=O)N1CCC(Nc2ccc(F)cc2)CC1 | inactive: 0.41%
19 | O=C(NCC1(N2CCCCC2)CCCCC1)c1ccc(F)cc1 | inactive: 0.74%
20 | O=C(NCC1(N2CCCCC2)CCCCC1)c1cccc(C(F)(F)F)c1 | inactive: 0.75%
21 | CN1CCN(CCOC(=O)C(O)(c2ccccc2)c2ccccc2)CC1 | inactive: 3.19%

Row | SMILES | CPE inhibition
22 | COc1ccc(NC2CCN(C(=O)OC(C)(C)C)CC2)cc1 | inactive: -0.64%
23 | COc1cc(C(=O)NCC2(N3CCCCC3)CCCCC2)ccc1OC(F)F | inactive: 0.65%
24 | O=C(NCC1(N2CCOCC2)CCCCC1)c1cc(=O)[nH]c2ccccc12 | inactive: 0.56%
25 | O=C(NCC1(N2CCCCC2)CCCCC1)c1ccc(OC(F)F)cc1 | inactive: 0.09%
26 | O=C(NCC1(N2CCCCC2)CCCCC1)c1cccc([N+](=O)[O-])c1 | inactive: -0.94%
27 | N#CC1(Nc2ccccc2)CCN(CCc2ccccc2)CC1 | inactive: -1.63%
28 | CCN1CCC(Nc2ccc(Cl)cc2)CC1 | inactive: 1.61%
29 | CN1CCC(Nc2cccc(F)c2)CC1 | inactive: -0.06%
30 | O=C(NCC1(N2CCCCC2)CCCCC1)c1cncc(Br)c1 | inactive: -0.54%
31 | CCCOc1ccc(C(=O)NCC2(N(C)C)CCCCC2)cc1OC | inactive: 0.87%
32 | CN(C)c1cccc(C(=O)NCC2(N3CCCCC3)CCCCC2)c1 | inactive: -0.56%
33 | COc1ccc(CN(CCCl)CCCl)cc1Cl | inactive: 0.72%
34 | CC(C)c1ccc(NC2CCN(C(=O)OC(C)(C)C)CC2)cc1 | inactive: 0.48%
35 | COc1cc(OC)c(C(=O)NCC2(N(C)C)CCCCC2)cc1OC | inactive: -0.02%
36 | N/C(=N\O)c1c(N)no[n+]1[O-] | inactive: 0.53%
37 | CCOC(=O)N1CCC(Nc2ccc(C)cc2)CC1 | inactive: 0.48%
38 | CCc1cc(C(=O)NCC2(N3CCCCC3)CCCCC2)sc1C | inactive: 1.07%
39 | O=C(OC1CN2CCC1CC2)C1c2ccccc2C=Cc2ccccc21 (stereo unspecified) | inactive: 0.02%
40 | O=C(NCC1(N2CCOCC2)CCCCC1)c1cc(Br)ccc1Cl | inactive: 0.95%
41 | COc1ccc(C(=O)NCC2(N3CCOCC3)CCCCC2)cc1OC | inactive: 0.89%
42 | CCCN1CCC(Nc2cc(OC)cc(OC)c2)CC1 | inactive: 0.7%

Row | SMILES | CPE inhibition
43 | c1ccc(CN2CCC(Nc3ccccc3)CC2)cc1 | inactive: 1.08%
44 | CN(C)C1(CNC(=O)c2cccc(C#N)c2)CCCCC1 | inactive: 2.15%
45 | CC(C)(C)OC(=O)N1CCC(N(C(=O)c2ccccc2)c2ccc(Cl)cc2)CC1 | inactive: 3.64%
46 | N#Cc1ccc(C(=O)NCC2(N3CCCCC3)CCCCC2)cc1 | inactive: -1.23%
47 | CCN1CCC(Nc2cccc(F)c2)CC1 | inactive: 0.53%
48 | CN(C)c1ccc(C(=O)NCC2(N3CCCCC3)CCCCC2)cc1 | inactive: -0.64%
49 | O=C(NCC1(N2CCCCC2)CCCCC1)c1ccco1 | inactive: -0.54%
50 | COc1cc(OC)cc(C(=O)NCC2(N3CCCCC3)CCCCC2)c1 | inactive: 2.94%
51 | Fc1ccccc1NC1CCN(Cc2ccccc2)CC1 | inactive: -1.42%
52 | Cc1ccc(C(=O)NCC2(N3CCCCC3)CCCCC2)o1 | inactive: -0.75%
53 | CCC(CO)(C(=O)OC1CN2CCC1CC2)c1ccccc1 (stereo unspecified) | inactive: -1.19%
54 | COc1cc(OC)cc(C(=O)NCC2(N3CCOCC3)CCCCC2)c1 | inactive: -0.42%
55 | CCCOc1ccc(C)cc1CN(CCCl)CCCl | inactive: 0.67%
56 | CN1CCC(Nc2ccc(Cl)cc2)CC1 | inactive: 0.34%
57 | CN1CCC(Nc2ccc(F)c(Cl)c2)CC1 | inactive: -0.43%
58 | CCOc1ncccc1C(=O)NCC1(N2CCOCC2)CCCCC1 | inactive: 1.11%
59 | CCCOc1ccc(C(=O)NCC2(N(C)C)CCCCC2)cc1 | inactive: -2.11%
60 | O=C(O)C1(Nc2ccccc2)CCN(Cc2ccccc2)CC1 | inactive: -1.03%
61 | CC(C)(C)OC(=O)N1CCC(Nc2ccccc2)CC1 | inactive: 1.7%

Source: PubChem BioAssay AID2391 (Southern Research Specialized Biocontainment Screening …, 2010)
